In assay [1] the target is T1, DEN2 cNS2B-NS3pro complex (Dengue virus 2 (DEN2 / DENV-2), UniProt P14340 1394-1440; P14340 1476-1660).
T1 sequence 1: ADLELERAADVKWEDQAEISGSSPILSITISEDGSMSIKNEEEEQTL
T1 sequence 2: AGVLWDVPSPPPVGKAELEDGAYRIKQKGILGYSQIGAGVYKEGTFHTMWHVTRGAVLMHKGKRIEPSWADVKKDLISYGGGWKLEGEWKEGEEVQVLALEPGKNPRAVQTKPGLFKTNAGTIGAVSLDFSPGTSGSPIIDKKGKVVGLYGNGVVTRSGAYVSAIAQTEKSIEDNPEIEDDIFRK

In assay [2] the target is T1, DEN2 cNS2B-NS3pro complex. In words: cell-based or functional assay.

B1: Tamapal1 (other)
chain: VPGVGVPGVGKWCFRVCYRGICYRRCRVPGVGVPGVGGATGSDVNFDLSTATAKTYTKFIEDFRATLPFSHKVYDIPLLYSTISDSRRFILLNLTSYAYETISVAIDVTNVYVVAYRTRDVSYFFKESPPEAYNILFKGTRKITLPYTGNYENLQTAAHKIRENIDLGLPALSSAITTLFYYNAQSAPSALLVLIQTTAEAARFKYIERHVAKYVATNFKPNLAIISLENQWSALSKQIFLAQNQGGKFRNPVDLIKPTGERFQVTNVDSDVVKGNIKLLLNSRASTADENFITTMTLLGESVVNVPGVGVPGVGHGVSGHGQHGVHG
Turning to B1, the Ki in assay [1] came to 2.37 µM. In addition, in assay [2], the “IC50 of NS2B-NS3 protease inhibition” value worked out at 4.74 µM.
